Reference: publication PMC10460844, “Real‐Time Monitoring of Multitarget Antimicrobial Mechanisms of Peptoids Using Label‐Free Imaging with Optical Diffraction Tomography” (Advanced Science, 2023)
Square brackets hold non-standard residues; d marks the D form. Peptide text beside a SMILES is read from it. Gly(N(CH2)2(3-indolyl)) = O=C(O)CNCCc1c[nH]c2ccccc12; Nspe = C[C@H](NCC(=O)O)c1ccccc1; Nlys = NCCCCNCC(=O)O

Assay: SAXS of peptoid interaction with lipid vesicles
Settings: liposomes with 25% negatively charged lipids, 37 °C, 33.0 ± 1 Å without peptoid

Row | Structure (SMILES) | membrane thickness after addition of peptoid [Å]
1 | C[C@@H](c1ccccc1)N(CC(=O)N(CCCCN)CC(=O)N(CC(=O)N(CC(=O)N(CCCCN)CC(=O)N(CC(=O)N(CC(=O)N(CCCCN)CC(=O)N(CCc1c[nH]c2ccccc12)CC(=O)N(CCc1c[nH]c2ccccc12)CC(N)=O)[C@@H](C)c1ccccc1)[C@@H](C)c1ccccc1)[C@@H](C)c1ccccc1)[C@@H](C)c1ccccc1)C(=O)CN(C(=O)CNCCCCN)[C@@H](C)c1ccccc1 [peptoid 11] (H-[Nlys][Nspe][Nspe][Nlys][Nspe][Nspe][Nlys][Nspe][Nspe][Nlys][Gly(N(CH2)2(3-indolyl))][Gly(N(CH2)2(3-indolyl))]-NH2) | 30 ± 1
2 | C[C@@H](c1ccccc1)N(CC(=O)N(CCCCN)CC(=O)N(CCc1c[nH]c2ccccc12)CC(=O)N(CCc1c[nH]c2ccccc12)CC(N)=O)C(=O)CN(CCCCN)C(=O)CN(CCCCN)C(=O)CN(C(=O)CN(C(=O)CN(CCCCN)C(=O)CN(C(=O)CN(C(=O)CNCCCCN)[C@@H](C)c1ccccc1)[C@@H](C)c1ccccc1)[C@@H](C)c1ccccc1)[C@@H](C)c1ccccc1 [peptoid 29] (H-[Nlys][Nspe][Nspe][Nlys][Nspe][Nspe][Nlys][Nlys][Nspe][Nlys][Gly(N(CH2)2(3-indolyl))][Gly(N(CH2)2(3-indolyl))]-NH2) | 29 ± 1
